Data: paper PMC11278161 (Marine Drugs, 2024)
Read-outs that look alike come from different tables or passages of the source.

Protein sequences, listed by entry. Tags and fused reporters are not part of them. Residues count along the entry.
UniProt P36544, 23-502 limits assumed: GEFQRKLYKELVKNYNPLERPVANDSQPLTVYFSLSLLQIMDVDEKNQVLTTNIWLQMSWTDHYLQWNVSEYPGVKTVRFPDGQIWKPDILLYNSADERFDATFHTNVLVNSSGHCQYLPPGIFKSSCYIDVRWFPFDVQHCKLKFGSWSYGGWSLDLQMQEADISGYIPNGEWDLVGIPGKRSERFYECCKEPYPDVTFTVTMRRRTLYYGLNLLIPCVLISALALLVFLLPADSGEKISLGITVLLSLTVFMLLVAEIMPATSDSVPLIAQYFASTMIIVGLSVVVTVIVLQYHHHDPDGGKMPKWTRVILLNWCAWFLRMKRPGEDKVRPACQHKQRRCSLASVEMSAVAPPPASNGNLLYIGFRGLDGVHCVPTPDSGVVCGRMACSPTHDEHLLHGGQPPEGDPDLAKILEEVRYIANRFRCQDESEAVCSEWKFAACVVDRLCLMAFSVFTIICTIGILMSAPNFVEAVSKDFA
UniProt P04757, 26-499 limits assumed: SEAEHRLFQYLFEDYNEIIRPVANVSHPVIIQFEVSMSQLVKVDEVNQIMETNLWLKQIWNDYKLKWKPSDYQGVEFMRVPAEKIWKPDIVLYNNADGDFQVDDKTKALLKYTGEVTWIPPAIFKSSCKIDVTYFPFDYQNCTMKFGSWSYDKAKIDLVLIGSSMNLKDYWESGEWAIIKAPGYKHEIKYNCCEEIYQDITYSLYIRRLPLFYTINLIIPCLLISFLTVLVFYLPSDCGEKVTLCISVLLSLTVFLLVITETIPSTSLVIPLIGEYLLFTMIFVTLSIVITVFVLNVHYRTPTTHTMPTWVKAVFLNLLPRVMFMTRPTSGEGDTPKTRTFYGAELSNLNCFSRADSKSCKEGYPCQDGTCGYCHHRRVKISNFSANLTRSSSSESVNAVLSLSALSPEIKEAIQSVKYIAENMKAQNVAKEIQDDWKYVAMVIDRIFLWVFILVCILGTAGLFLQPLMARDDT
UniProt P12390, 25-500 limits assumed: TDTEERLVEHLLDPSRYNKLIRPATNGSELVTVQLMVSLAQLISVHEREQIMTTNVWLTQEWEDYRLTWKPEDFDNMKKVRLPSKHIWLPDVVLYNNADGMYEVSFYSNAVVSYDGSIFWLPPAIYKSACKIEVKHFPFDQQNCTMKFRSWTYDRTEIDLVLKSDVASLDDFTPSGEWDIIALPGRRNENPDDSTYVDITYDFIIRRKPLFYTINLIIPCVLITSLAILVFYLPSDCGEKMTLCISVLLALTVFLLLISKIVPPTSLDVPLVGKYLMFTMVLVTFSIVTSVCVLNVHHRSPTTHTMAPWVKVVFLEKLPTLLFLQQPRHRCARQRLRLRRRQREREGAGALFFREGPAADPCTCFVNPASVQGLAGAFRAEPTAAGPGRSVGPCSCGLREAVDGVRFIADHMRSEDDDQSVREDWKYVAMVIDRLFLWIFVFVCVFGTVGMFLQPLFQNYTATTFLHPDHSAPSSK

Assays:
human α7 nAChR = human α7 nAChR (Homo sapiens, UniProt P36544); details: for IC50: read-out: α7 (IC50), TEVC, Xenopus oocytes
rat α3β2 nAChR = rat α3β2 nAChR (Rattus norvegicus, UniProt P04757+P12390); details: for IC50: read-out: α3β2 (IC50), TEVC, Xenopus oocytes
[1] = 100 µM ACh, 5 min peptide incubation, -70 mV, 26 °C, 95% CI in parentheses, mean of n = 3-10

Row | SMILES | IC50 (human α7 nAChR; [1]) | IC50 (rat α3β2 nAChR; [1]) | blocking activity on α7 nAChR (human α7 nAChR; at a concentration of 10 μM) | IC50 (human α7 nAChR; n = 3-10) | blocking activity on α3β2 nAChR (rat α3β2 nAChR; at a concentration of 10 μM) | IC50 (rat α3β2 nAChR; n = 3-10)
1 | CC[C@H](C)[C@@H]1NC(=O)[C@H](CC(N)=O)NC(=O)[C@@H]2CCCN2C(=O)[C@H](CC(N)=O)NC(=O)[C@H](CC(N)=O)NC(=O)[C@H](C(C)C)NC(=O)[C@H](CCCNC(=N)N)NC(=O)[C@@H]2CSSC[C@H](NC(=O)CNC(=O)[C@@H](N)CO)C(=O)N[C@@H](CSCc3cccc(c3)CSC[C@@H](C(N)=O)NC1=O)C(=O)N[C@@H](CO)C(=O)N[C@@H](CC(N)=O)C(=O)N1CCC[C@H]1C(=O)N[C@@H](C)C(=O)N2 | 9.4 nM | 29.7 nM |  |  |  | 
2 | CC[C@H](C)[C@@H]1NC(=O)[C@H](CC(N)=O)NC(=O)[C@@H]2CCCN2C(=O)[C@H](CC(N)=O)NC(=O)[C@H](CC(N)=O)NC(=O)[C@H](C(C)C)NC(=O)[C@H](CCCNC(=N)N)NC(=O)[C@@H]2CSSC[C@H](NC(=O)CNC(=O)[C@@H](N)CO)C(=O)N[C@@H](CSc3nc(Cl)nc(n3)NCc3cccc(c3)CNc3nc(Cl)nc(n3)SC[C@@H](C(N)=O)NC1=O)C(=O)N[C@@H](CO)C(=O)N[C@@H](CC(N)=O)C(=O)N1CCC[C@H]1C(=O)N[C@@H](C)C(=O)N2 | 49.8 nM | 50 nM |  |  |  | 
3 | CC[C@H](C)[C@@H]1NC(=O)[C@H](CC(N)=O)NC(=O)[C@@H]2CCCN2C(=O)[C@H](CC(N)=O)NC(=O)[C@H](CC(N)=O)NC(=O)[C@H](C(C)C)NC(=O)[C@H](CCCNC(=N)N)NC(=O)[C@@H]2CSSC[C@H](NC(=O)CNC(=O)[C@@H](N)CO)C(=O)N[C@@H](CSCc3ccccc3CSC[C@@H](C(N)=O)NC1=O)C(=O)N[C@@H](CO)C(=O)N[C@@H](CC(N)=O)C(=O)N1CCC[C@H]1C(=O)N[C@@H](C)C(=O)N2 | 11.6 nM | 13.3 nM |  |  |  | 
4 | CC[C@H](C)[C@@H]1NC(=O)[C@H](CC(N)=O)NC(=O)[C@@H]2CCCN2C(=O)[C@H](CC(N)=O)NC(=O)[C@H](CC(N)=O)NC(=O)[C@H](C(C)C)NC(=O)[C@H](CCCNC(=N)N)NC(=O)[C@@H]2CSSC[C@H](NC(=O)CNC(=O)[C@@H](N)CO)C(=O)N[C@@H](CSCc3ccc(cc3)CSC[C@@H](C(N)=O)NC1=O)C(=O)N[C@@H](CO)C(=O)N[C@@H](CC(N)=O)C(=O)N1CCC[C@H]1C(=O)N[C@@H](C)C(=O)N2 | 7.6 nM | 43.6 nM |  |  |  | 
5 | CC[C@H](C)[C@@H]1NC(=O)[C@H](CC(N)=O)NC(=O)[C@@H]2CCCN2C(=O)[C@H](CC(N)=O)NC(=O)[C@H](CC(N)=O)NC(=O)[C@H](C(C)C)NC(=O)[C@H](CCCNC(=N)N)NC(=O)[C@@H]2CSSC[C@H](NC(=O)CNC(=O)[C@@H](N)CO)C(=O)N[C@@H](CSCCS(=O)(=O)N(c3ccccc3)S(=O)(=O)CCSC[C@@H](C(N)=O)NC1=O)C(=O)N[C@@H](CO)C(=O)N[C@@H](CC(N)=O)C(=O)N1CCC[C@H]1C(=O)N[C@@H](C)C(=O)N2 | 22.8 nM | 120 nM |  |  |  | 
6 | CC[C@H](C)[C@@H]1NC(=O)[C@H](CC(N)=O)NC(=O)[C@@H]2CCCN2C(=O)[C@H](CC(N)=O)NC(=O)[C@H](CC(N)=O)NC(=O)[C@H](C(C)C)NC(=O)[C@H](CCCNC(=N)N)NC(=O)[C@@H]2CSCc3ccccc3CSC[C@H](NC(=O)CNC(=O)[C@@H](N)CO)C(=O)N[C@@H](CSSC[C@@H](C(N)=O)NC1=O)C(=O)N[C@@H](CO)C(=O)N[C@@H](CC(N)=O)C(=O)N1CCC[C@H]1C(=O)N[C@@H](C)C(=O)N2 |  |  | did not show potent blocking activity | > 10000 nM | did not show potent blocking activity | > 10000 nM
